Results of unrelated studies side by side (data: NIAID ChemDB).

All rows: host cell toxicity; cells: MT-4; endpoint: CC50

CCn: concentration that lowers growth or viability of the cells by n%. An empty or dashed field is not shown. Rows are shuffled and stem from different studies.

SMILES	method	result
Nc1nc2c(ncn2[C@H]2CC[C@@H](CO)O2)c(=O)[nH]1	-	611 µM
O=C(OC[C@@H]1CC[C@H](n2ccc(=O)[nH]c2=O)O1)C(=O)N1CCCC1C(=O)N[C@H](Cc1ccccc1)C(=O)OCc1ccccc1	-	>65 µM
Cc1ccnc2c1NC(=O)c1cccnc1N2C1CC1	MTT	>15 µM
Nc1ncnc2c1ncn2C[C@@H](CF)OCP(=O)(O)O	-	>100 µg/mL
CC(Sc1nc2ncccc2n1-c1ccc(C2CC2)c2ccccc12)C(=O)Nc1ccc(C(N)=O)cc1Br	MTT	3.05 µM
CCOC(=O)C1C/C(=C\c2ccc(O)c(O)c2)C(=O)/C(=C/c2ccc(O)c(O)c2)C1	MTT	5 µM
NS(=O)(=O)c1ccc(NC(=O)CSc2nncnc2-c2cccc3ccccc23)c(Br)c1	MTT	23 µM
Cc1cn(-c2ccc3c(C)nc(CCCCCCC(=O)c4ccccc4)n3n2)cn1	-	260 µM
Cc1c(Sc2ccccc2)n(COCCO)c(=S)[nH]c1=O	-	124 µM
Nc1ccn([C@H]2CC[C@@H](COC(=O)C(=O)N3CCCC3C(=O)N[C@H](Cc3ccccc3)C(=O)OCc3ccccc3)O2)c(=O)n1	-	>150 µM
CCN1C/C(=C\c2ccc(O)c(O)c2)C(=O)/C(=C/c2ccc(O)c(O)c2)C1	MTT	5 µM
Cc1ccccc1Sc1c(C(C)C)c(COC(N)=O)cn1Cc1ccncc1	MTT	>200 µM
O=C(Cc1ccc(CNCCCN2CCOCC2)cc1)NCCCN1CCOCC1	MTT	>59.73 µM
O=C1/C(=C/c2ccc(O)c(O)c2)CC(C(=O)O)C/C1=C\c1ccc(O)c(O)c1	MTT	42 µM
O=C(Cc1ccc(CC(=O)NCCN2CCCC2)cc1)NCCN1CCCC1	MTT	>323 µM
CC(C)c1c(CO)cn(Cc2ccccn2)c1Sc1cc(Cl)cc(Cl)c1	MTT	120 µM
Nc1ncnc2c1ncn2[C@H]1CC[C@@H](COC(=O)C(=O)N2CCCC2C(=O)N[C@H](Cc2ccccc2)C(=O)OCc2ccccc2)O1	-	>150 µM
CCOC(=O)c1cn(Cc2ccncc2)c(Sc2cccc(F)c2)c1C(C)C	MTT	40 µM
c1cc(CN2CCNCCNCCNCC2)cc(CN2CCNCCNCCNCC2)c1	-	6.4 µM
C[C@H](Cn1cnc2c(=O)[nH]c(N)nc21)OCP(=O)(O)O	-	>100 µg/mL
Cc1nn(-c2ccccc2)c2c1nnn2C(=O)NC(C)(C)C	-	>200 µM
Cc1nc(CCCCCCC(=O)c2ccccc2)n2nc(-n3cncc3C)ccc12	-	26 µM
Cc1c(SC2CCCCC2)n(COCCO)c(=O)[nH]c1=O	-	440 µM
O=S1(=O)NC(Cc2cccc3ccccc23)=CC(=NC2CCN(Cc3ccccc3)CC2)N1	MTT	117 µM
Cc1nc(CCCCCOC(=O)C2CCCC2)n2nc(Cl)ccc12	-	250 µM
CC(=O)OCC1=C[C@H]2[C@@H]3C(C)(C)[C@]3(OC(C)=O)[C@H](OC(C)=O)[C@@H](C)[C@]2(O)[C@@H]2C=C(C)C(=O)[C@@H]2C1	-	>250 µg/mL
CCOC(=O)c1cn(Cc2ccncc2)c(Sc2ccc(C)cc2)c1C(C)C	MTT	60 µM
NC1=Nc2c(ncn2CCC(/C=C/P(=O)(O)O)CO)C(=O)C1	MTT	1235 µM
Cc1c(Sc2ccccc2)n(COCc2ccccc2)c(=O)[nH]c1=O	-	63 µM
O=C(Cc1ccc(CNCCCN2CCCCC2)cc1)NCCCN1CCCCC1	MTT	>60.29 µM
CCC(Cc1ccccc1)c1cc(O)c(C(c2cccc(NC(=O)Cc3ccncc3)c2)C2CC2)c(=O)o1	-	>>30 µM
O=c1[nH]c(=O)n([C@H]2C=C[C@@H](CO)O2)cc1C#CCO	MTT	64 µM
CCCCCCCCCC(=O)O[C@@H]1[C@@H](C)[C@@]2(O)C(C=C(CO)C[C@]3(O)C(=O)C(C)=CC23)C2C(C)(C)[C@@]21OC(=O)C(C)CC	-	>31.3 µg/mL
Cc1nn(-c2ccccc2)c2nn(N)nc12	-	154 µM
O=C1C(=Cc2ccc(Cl)c(Cl)c2)CCCC1=Cc1ccc(Cl)c(Cl)c1	MTT	120 µM
Nc1nc(N)c2ncn(C[C@@H](CF)OCP(=O)(O)O)c2n1	-	>100 µg/mL
Cc1nc(CCCCCCC(=O)c2ccccc2)n2nc(-n3cccn3)ccc12	-	26 µM
Nc1ccn([C@H]2CC[C@@H](CO)O2)c(=O)n1	-	>150 µM
NCC#Cc1cn([C@H]2C=C[C@@H](CO)O2)c(=O)[nH]c1=O	MTT	>100 µM
O=C(CSc1nncnc1-c1ccccc1Cl)Nc1ccc(Cl)cc1Cl	MTT	51 µM
CCC1(c2ccccc2)Oc2ccccc2-n2cccc2C1=O	-	3.3 µM
O=c1[nH]c(=O)n([C@H]2C=C[C@@H](CO)O2)cc1C#CCCOC1CCCCO1	MTT	71 µM
Cc1cc(C)cc(Sc2c(C(C)C)c(CO)cn2Cc2ccncc2)c1	MTT	≥200 µM
CC(C)Nc1cccnc1N1CCN(C(=O)c2cc3cc(NS(C)(=O)=O)ccc3[nH]2)CC1	MTT	36.8 µM
Cc1nc(CCCCCCC(=O)c2ccccc2)n2nc(-n3cccc3)ccc12	-	26 µM
CC(=O)c1ccc(CN2CCC(N=C3C=C(Cc4ccc(Cl)cc4Cl)NS(=O)(=O)N3)CC2)cc1	MTT	99.45 µM
COC(=O)c1ccc(NC(=O)CSc2nc3ncccc3n2-c2ccc(C3CC3)c3ccccc23)c([N+](=O)[O-])c1	MTT	2.46 µM
CC(=O)OCC1=C[C@H]2[C@@H]3C(C)(C)[C@]3(OC(C)=O)[C@H](OC(C)=O)[C@@H](C)[C@]2(O)[C@@H]2C=C(C)C(=O)[C@@]2(OC(C)=O)C1	-	>250 µg/mL
CCOC(=O)c1ccc(NC(=O)CSc2nncnc2-c2cccc3ccccc23)c(Cl)c1	MTT	150 µM
CCC(Cc1ccccc1)c1cc(O)c(C(c2cccc(NC(=O)[C@H](Cc3cn(S(=O)(=O)c4ccc(C)cc4)cn3)NC(=O)OC(C)(C)C)c2)C2CC2)c(=O)o1	-	>>30 µM
c1ccc2c(c1)Cn1cccc1-c1nncn1-2	-	>300 µM
Cc1nc(CCCCCCC(=O)c2ccccc2)n2nc(N)ccc12	-	30 µM
c1cc(CNCCCN2CCCC2)ccc1CNCCCN1CCCC1	MTT	90.4 µM
Nc1ccn([C@H]2C=C[C@@H](CO)O2)c(=O)n1	-	42 µM
Cc1nn(-c2ccccc2)c2c1nnn2[C@@H]1O[C@H](CO)[C@@H](O)[C@H]1O	-	145 µM
NC(=O)c1ccc(NC(=O)CSc2nc3ncccc3n2-c2ccc(C3CC3)c3ccccc23)c(Br)c1	MTT	0.66 µM
O=C(CSc1nncnc1-c1ccccc1Cl)Nc1ccccn1	MTT	172 µM
CCOC(=O)CN1C(=O)c2cccn2S(=O)(=O)c2ccccc21	-	>300 µM
O=C(CSc1nc2ncccc2n1-c1ccc(C2CC2)c2ccccc12)Nc1ccc(C(=O)O)cc1Cl	MTT	1.12 µM
CC(C)Nc1cccnc1N1CCN(C(=O)c2cc3cc(NS(C)(=O)=O)ccc3[nH]2)CC1	MTT	>43.81 µM
CC1=C[C@@H]2[C@@H](CC(CO)=C[C@H]3[C@@H]4C(C)(C)[C@]4(O)[C@H](O)[C@@H](C)[C@]23O)C1=O	-	>500 µg/mL
CCOC(=O)c1ccc(NC(=O)CSc2nc3ncccc3n2-c2ccc(C3CC3)c3ccccc23)c(Cl)c1	MTT	3.14 µM
Cc1cn([C@H]2C[C@H](N=[N+]=[N-])[C@@H](COC(=O)C3=CN(C)C=CC3)O2)c(=O)[nH]c1=O	-	28 µM
CC1CCCCN1CCCNCc1ccc(CC(=O)NCCCN2CCCCC2C)cc1	MTT	>56.47 µM
O=C1c2cccn2S(=O)(=O)c2ccccc2N1CC1CC1	-	>300 µM
CCCCCCCCCC(=O)O[C@@H]1[C@@H](C)[C@@]2(O)[C@@H](C=C(COC(C)=O)C[C@@]3(O)C(=O)C(C)=C[C@@H]23)[C@@H]2C(C)(C)[C@]12OC(C)=O	-	>500 µg/mL
CCOC(=O)C1c2cccn2Sc2ccccc2N1C(=O)CCl	-	>300 µM
Cc1cn([C@H]2C[C@H](N=[N+]=[N-])[C@@H](CO)O2)c(=O)[nH]c1=O	-	12 µM
CCCNC(=O)n1nnc2c(C)nn(-c3ccccc3)c21	-	74 µM
Nc1ncnc2c1ncn2CCOCP(=O)(O)O	MTT	187 µM
CNc1ccc2c(C)nc(CCCCCCC(=O)c3ccccc3)n2n1	-	25 µM
CS(=O)(=O)c1ccc(CN2CCC(N=C3C=C(Cc4cccc5ccccc45)NS(=O)(=O)N3)CC2)cc1	MTT	>232 µM
c1cc(CCNCCCN2CCCCC2)ccc1CCNCCCN1CCCCC1	MTT	113 µM

For reference, 6 entries again:

| SMILES | method | result |
|---|---|---|
| CC(Sc1nc2ncccc2n1-c1ccc(C2CC2)c2ccccc12)C(=O)Nc1ccc(C(N)=O)cc1Br | MTT | 3.05 µM |
| O=c1[nH]c(=O)n([C@H]2C=C[C@@H](CO)O2)cc1C#CCCOC1CCCCO1 | MTT | 71 µM |
| O=S1(=O)NC(Cc2cccc3ccccc23)=CC(=NC2CCN(Cc3ccccc3)CC2)N1 | MTT | 117 µM |
| Cc1nc(CCCCCOC(=O)C2CCCC2)n2nc(Cl)ccc12 | - | 250 µM |
| CCC(Cc1ccccc1)c1cc(O)c(C(c2cccc(NC(=O)Cc3ccncc3)c2)C2CC2)c(=O)o1 | - | >>30 µM |
| Cc1cc(C)cc(Sc2c(C(C)C)c(CO)cn2Cc2ccncc2)c1 | MTT | ≥200 µM |